This passage reports EC50, IC50 and Ki results from US7582618B2 (priority 2002, dated 2009).

Amino acid sequences for entries named in this document (tags omitted). Residues count along the entry.
UniProt P19711, 3270-3988 limits assumed: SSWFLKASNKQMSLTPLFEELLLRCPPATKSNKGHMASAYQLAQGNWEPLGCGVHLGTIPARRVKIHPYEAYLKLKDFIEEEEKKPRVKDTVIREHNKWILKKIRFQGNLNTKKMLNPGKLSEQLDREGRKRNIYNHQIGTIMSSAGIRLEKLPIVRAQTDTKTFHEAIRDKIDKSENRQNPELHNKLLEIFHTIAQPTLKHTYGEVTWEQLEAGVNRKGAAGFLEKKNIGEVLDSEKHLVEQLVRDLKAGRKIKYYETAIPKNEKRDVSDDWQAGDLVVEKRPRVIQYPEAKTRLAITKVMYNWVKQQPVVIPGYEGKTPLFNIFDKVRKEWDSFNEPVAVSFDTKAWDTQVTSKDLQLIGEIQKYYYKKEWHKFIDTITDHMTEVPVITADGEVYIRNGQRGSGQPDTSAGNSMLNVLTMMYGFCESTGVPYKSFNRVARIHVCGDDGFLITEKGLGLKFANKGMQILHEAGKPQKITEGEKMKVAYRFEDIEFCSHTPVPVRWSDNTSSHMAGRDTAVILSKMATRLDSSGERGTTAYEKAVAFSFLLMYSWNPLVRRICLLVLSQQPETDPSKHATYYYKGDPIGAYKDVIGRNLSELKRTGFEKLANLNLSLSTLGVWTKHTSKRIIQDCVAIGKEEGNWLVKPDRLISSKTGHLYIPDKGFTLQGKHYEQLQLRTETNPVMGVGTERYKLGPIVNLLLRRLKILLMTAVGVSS

Structures are written as SMILES.

Test [1] relates to WNV. The test can be described thus: microbe, parasite or virus in culture. The note with it: West Nile virus, read-out: WNV (Table 8b). It counts as cell-based.
Test [2] has as its system Yellow Fever Virus 17D in BHK cells. The test can be described thus: microbe, parasite or virus in culture. It counts as cell-based. The note with it: read-out: Antiviral Efficacy EC50.
For test [3], the target named is BVDV NS5B RNA-dependent RNA polymerase (Bovine viral diarrhea virus, UniProt P19711). The test is described as follows: RNA synthesis by purified polymerase on synthetic RNA templates.

Regarding `CC1(O)C(O)C(CO)OC1n1ccc(N)nc1=O` (stereo not shown) [mCyd, 4-Amino-1-(3,4-dihydroxy-5-hydroxymethyl-3-methyl-tetrahydro-furan-2-yl)-1H-pyrimidine-2-one], the EC50 in test [1] was 80 µM; in test [2], 60 to 80 µM.
Consider `C[C@@]1(O)[C@H](O)[C@@H](COP(=O)(O)OP(=O)(O)OP(=O)(O)O)O[C@H]1n1ccc(N)nc1=O` [mCyd-TP, 2′-C-methyl-cytidine-5′-triphosphate], for which, in test [3], half-maximal inhibition (IC50) required 0.74 µM and the Ki (usually the equilibrium dissociation constant of an inhibitor or competing ligand from its target) was 0.16 µM.
